Reference: publication PMC6135763 (Nature Communications, 2018)

Experiments:
[1] = biological target: GST-NiV W (C-terminal NLS domain of Nipah virus W protein, residues 411–450, GST fusion) (Nipah virus) (UniProt P0C1C7); experiment: ELISA
[2] = biological target: GST-HeV W (C-terminal NLS domain of Hendra virus W protein, residues 409–448, GST fusion) (Hendra virus) (UniProt P0C1C6); experiment: ELISA

“Importin α1ΔIBB (residues 71–529) (from UniProt P52292 71-529) (domain or fragment)” showed a Kd [1] of 1500 nM and a Kd [2] of 1400 nM.
